Experimental data: PubChem BioAssay AID624099 (ICCB-Longwood, 2012)
Shown is one part, drawn at random, of about 21,000 deposited reagents. 497 of them (2.4%) were called active. 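Higher z means weaker E2 silencing; only reporter increases were scored, and knock-downs that hurt cell survival may mask genuine repressor factors.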 Entries without a mark were called inactive.

- Screen: 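Knock-downs relieving repression by E2 of an HPV18 LCR luciferase reporter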 (primary screen)
- Cells: human C33A cervical carcinoma cells (HPV-negative) stably expressing BPV1 E2 and an HPV18 LCR luciferase reporter
- Reagent: siRNA pool against human genes, 40 nM
- Timing: 72 h
- Measured: 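Per-well luciferase luminescence, z-scored on each plate against the plate mean and SD with control wells left out, then averaged across three replicate plates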
- Scale: mean z-score and z-score: higher = stronger reporter signal, weaker E2 silencing
- Active means: 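Mean z ≥ 2 together with z ≥ 2 in two or more of the three replicates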

DNAAF9 | mean z-score = -0.77; z-score, replicate A = -1.12; z-score, replicate B = -0.56; z-score, replicate C = -0.61
ZDHHC13 | mean z-score = -0.86; z-score, replicate A = -1.02; z-score, replicate B = -0.75; z-score, replicate C = -0.82
LOC389178 (retired record) | mean z-score = -0.99; z-score, replicate A = -0.73; z-score, replicate B = -1.37; z-score, replicate C = -0.87
IVL | mean z-score = 1.2; z-score, replicate A = 1.08; z-score, replicate B = 1.22; z-score, replicate C = 1.3
FAM170A | mean z-score = 0.25; z-score, replicate A = 0.47; z-score, replicate B = 0.19; z-score, replicate C = 0.09
CNP | mean z-score = -0.35; z-score, replicate A = -0.37; z-score, replicate B = -0.22; z-score, replicate C = -0.46
AMOT | mean z-score = -0.76; z-score, replicate A = -0.63; z-score, replicate B = -1.03; z-score, replicate C = -0.62
NCOA2 | mean z-score = 0.55; z-score, replicate A = 0.37; z-score, replicate B = 0.53; z-score, replicate C = 0.76
MAP2K4 | mean z-score = -0.14; z-score, replicate A = -0.31; z-score, replicate B = -0.16; z-score, replicate C = 0.06
CMIP | mean z-score = 0.5; z-score, replicate A = 0.43; z-score, replicate B = 0.67; z-score, replicate C = 0.4
RBM8A | mean z-score = 0.39; z-score, replicate A = 0.19; z-score, replicate B = 0.6; z-score, replicate C = 0.39
TNFRSF10D | mean z-score = -0.52; z-score, replicate A = -0.49; z-score, replicate B = -0.51; z-score, replicate C = -0.55

A stretch from the list above, as a working copy:
FAM170A | mean z-score = 0.25; z-score, replicate A = 0.47; z-score, replicate B = 0.19; z-score, replicate C = 0.09
CNP | mean z-score = -0.35; z-score, replicate A = -0.37; z-score, replicate B = -0.22; z-score, replicate C = -0.46
